Results published in paper PMC9863607, “Combined Use of Antimicrobial Peptides with Antiseptics against Multidrug-Resistant Bacteria: Pros and Cons” (Pharmaceutics, 2023).

Test system: drug-resistant clinical isolates and E. coli ML-35p
Experiment: Checkerboard titration, all tested bacteria together
Format: cell-based
Conditions: planktonic bacteria, Table 2; 16 out of 24, 15 out of 30, 12 out of 30
Method: The mode of interaction of the test substances while applied in combinations was analyzed based on the calculation of the fractional (or combination) indices—the mathematical “embodiment” of the Loewe additivity paradigm that we used for the classification of combination effects in this study. As synergy is generally defined as a greater than additive effect, and antagonism as a lower than additive effect, the main problem is to establish a reference level for this additive effect. The Loewe approach uses the idea of the self-additivity of an individual substance; thus, the individual activity may be regarded as an additivity control. To identify additivity, synergy, or antagonism in Loewe terms, one should choose a fixed level of the studied effect and then compare the doses of individual substances required to reach this level, with the fractional doses of the substances in combination providing the same level of the effect.
In the case of activity testing of combinations toward planktonic bacteria, a checkerboard titration scheme was used to create an array of mixtures of the two substances (A and B) in various concentrations by diluting the first one two-fold row-by-row and the second one column-by-column. The left column and the bottom row contained the dilutions of only one substance (A or B) to control their individual activity levels in every experiment. […]

SMILES | Share of synergy cases among tested combinations [%]
CC(C)C[C@H](NC(=O)[C@H](CCCNC(=N)N)NC(=O)CNC(=O)CNC(=O)[C@@H](N)CCCNC(=N)N)C(=O)N[C@H]1CSSC[C@@H](C(=O)N[C@H](C(=O)NCC(=O)N[C@@H](CCCNC(=N)N)C(N)=O)C(C)C)NC(=O)[C@H](C(C)C)NC(=O)[C@@H]2CSSC[C@H](NC(=O)[C@H](Cc3ccc(O)cc3)NC1=O)C(=O)N[C@@H](CCCNC(=N)N)C(=O)N[C@@H](CCCNC(=N)N)C(=O)N[C@@H](CCCNC(=N)N)C(=O)N[C@@H](Cc1ccccc1)C(=O)N2 [PG-1, protegrin 1] | 40
CC[C@H](C)[C@H](NC(=O)[C@H](CCCNC(=N)N)NC(=O)[C@@H](NC(=O)[C@@H]1CCCN1C(=O)[C@@H]1CCCN1C(=O)[C@H](CCCNC(=N)N)NC(=O)[C@H](CCCNC(=N)N)NC(=O)[C@H](Cc1ccccc1)NC(=O)[C@@H]1CCCN1C(=O)[C@H](CC(C)C)NC(=O)[C@H](CCCNC(=N)N)NC(=O)[C@H](Cc1ccccc1)NC(=O)[C@@H](N)CCCNC(=N)N)[C@@H](C)CC)C(=O)N[C@@H](Cc1c[nH]cn1)C(=O)N1CCC[C@H]1C(=O)N1CCC[C@H]1C(=O)N1CCC[C@H]1C(=O)N[C@@H](Cc1ccccc1)C(=O)N[C@@H](Cc1ccc(O)cc1)C(=O)N1CCC[C@H]1C(=O)N1CCC[C@H]1C(=O)N[C@@H](Cc1ccccc1)C(=O)N[C@@H](CCCNC(=N)N)C(=O)N[C@@H](CCCNC(=N)N)C(=O)N[C@@H](Cc1ccccc1)C(=O)N[C@@H](CC(C)C)C(=O)O [ChBac3.4] (H-RFRLPFRRPPIRIHPPPFYPPFRRFL-OH; N-terminus assumed) | 50

Peptide text beside a SMILES is read from it.
